Consider one substance from USRE39240E1, “Conotoxins I” (dated 2006).

The subject of the assay is a particular receptor. Briefly: expected receptor affinity testing. Particulars: believed that testing will show; not tested.

For the substance “H-His-4Hyp-4Hyp-Cys-Cys-Leu-Tyr-Gly-Lys-Cys-Arg-Arg-Tyr-4Hyp-Gly-Cys-Ser-Ser-Ala-Ser-Cys-Cys-Gln-OH”, the “expected affinity and specificity for a receptor” value was “high affinity and specificity for a particular receptor”.
